Pooled drug test results. Numbers come from NIAID ChemDB, via PubChem.

Common to all: whole-cell or culture tests; organism: Cryptosporidium parvum; measure: inhibition

Lines come from different laboratories, so protocols vary. Percent inhibition refers to the dose given; in toxicity tests it is the harm to the cells. An empty or dashed field is not shown.

SMILES | strain or isolate | cells | read by | tested at | value
O=C1/C(=C/c2ccc(O)c(O)c2)Oc2cc(O)ccc21 |  |  |  | 50 µM | 96%
NC[C@@H]1O[C@H](O[C@H]2[C@@H](O)[C@H](O[C@@H]3[C@@H](O)[C@H](N)C[C@H](N)[C@H]3O[C@H]3O[C@H](CO)[C@@H](O)[C@H](O)[C@H]3N)O[C@@H]2CO)[C@H](N)[C@@H](O)[C@@H]1O |  |  |  | 25 µM | <10%
CC[C@@H](C(=O)[C@@H](C)[C@@H](O)[C@H](C)CCc1ccc(C)c(O)c1C(=O)O)[C@H]1O[C@](CC)([C@H]2CC[C@](O)(CC)[C@H](C)O2)C[C@@H]1C |  | A549 |  | 0.5 µg/mL | 28%
CC(=O)Oc1ccccc1C(=O)Nc1ncc([N+](=O)[O-])s1 |  | MDBK | cell count | 0.1 µg/mL | 10.3%
CCN(CC)CCSc1c2ccccc2nc2cc(N)ccc12 |  |  |  | 50 µg/mL | 48%
COc1ccc(/C=C\C=C\c2cc(OC)cc(=O)o2)cc1 |  |  |  | 10 µM | 0%
NC[C@@H]1O[C@H](O[C@H]2[C@@H](O)[C@H](O[C@@H]3[C@@H](O)[C@H](N)C[C@H](N)[C@H]3O[C@H]3O[C@H](CO)[C@@H](O)[C@H](O)[C@H]3N)O[C@@H]2CO)[C@H](N)[C@@H](O)[C@@H]1O | IOWA | MDCK | luminescence | 500 µg/mL | 40.1%
Nc1ccc2c(SCc3ccc([N+](=O)[O-])cc3)c3ccccc3nc2c1 |  |  |  | 10 µg/mL | 42%
NC[C@@H]1O[C@H](O[C@H]2[C@@H](O)[C@H](O[C@@H]3[C@@H](O)[C@H](N)C[C@H](N)[C@H]3O[C@H]3O[C@H](CO)[C@@H](O)[C@H](O)[C@H]3N)O[C@@H]2CO)[C@H](N)[C@@H](O)[C@@H]1O |  | MDBK | antigen | 2 µg/mL | 79.4%
Cn1ncc2c1C(=O)c1cccc(Br)c1C2=O |  |  |  | 25 µM | 42%
COc1cc(/C=C/C=C\c2ccc3c(c2)OCO3)oc(=O)c1 |  |  |  | 10 µM | 0%
CO[C@H]1/C=C/O[C@@]2(C)Oc3c(C)c(O)c4c(O)c(c5c(c4c3C2=O)NC2(CCN(CC(C)C)CC2)N=5)=NC(=O)/C(C)=C\C=C\[C@H](C)[C@H](O)[C@@H](C)[C@@H](O)[C@@H](C)[C@H](OC(C)=O)[C@@H]1C |  | A549 |  | 2 µg/mL | 11%
COc1cc(O)c2c(O)c(C(=O)c3ccccc3)oc2c1 |  |  |  | 50 µM | 19%
Cn1cc2c(n1)C(=O)c1cc3ccccc3c(O)c1C2=O |  |  |  | 100 µM | <10%
COc1cc(/C=C2\Oc3cc(O)cc(O)c3C2=O)cc(OC)c1O |  |  |  | 25 µM | 36%
CCN(CC)CCSc1c2ccccc2nc2cc(Cl)ccc12 |  |  |  | 10 µg/mL | 37%
Cc1cc(O)c2c(c1)C(=O)c1c(cnn1C)C2=O |  |  |  | 100 µM | 42%
C=C/C=C/c1cc(OC)cc(=O)o1 |  |  |  | 50 µM | 98%

Repeating the final 2 entries:

SMILES	strain or isolate	cells	read by	tested at	value
Cc1cc(O)c2c(c1)C(=O)c1c(cnn1C)C2=O				100 µM	42%
C=C/C=C/c1cc(OC)cc(=O)o1				50 µM	98%